The entries are a selection whose mix differs from that of the whole data set. Some structures show a salt or complex split into parts, the way the source records it. Calls of active or inactive are those of the source.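 Rule for the calls: active = inhibition above the mean of all tested compounds plus 3 SD, set per screening campaign (cut at about 45% in these data); inactive = the rest.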
Each molecule was assayed on HCV core protein (residues 1-106) dimerization (assay: blockers of core106 self-association – biochemical, TR-FRET, high-throughput, primary screen (AID 1899)). Conditions: TR-FRET GST/Flag-core106 dimerization, 1536-well; at 5 µM; hits give high values.
Summary of the method: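 Assay system: tagged HCV core106 pair (GST and Flag); medium: KF-containing HEPES buffer, pH 7.45, DTT, CHAPS, BSA; also added: Eu donor and XL665 acceptor anti-tag antibodies; dosing: 5 µM single dose; timing: compound-protein-antibody incubation 4 h at 22.5 °C; signal: TR-FRET 671 and 617 nm emission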

| SMILES | inhibition |
| --- | --- |
| CCOC(=O)c1ccc(NP(C)(=O)Oc2ccc(F)cc2)cc1 (stereo not drawn) | inactive: -9.77% |
| COc1ccc(OP(C)(=O)Nc2ccc(SC(F)(F)F)cc2)cc1 (stereo not drawn) | inactive: 1% |
| CP(=O)(Nc1ccccc1)Oc1ccc(F)cc1 (stereo not drawn) | inactive: -6.31% |
| CCCCCOc1ccc(NP(C)(=O)Oc2ccc(Cl)cc2Cl)cc1 (stereo not drawn) | inactive: -4.12% |
| O=[N+]([O-])c1cc([N+](=O)[O-])c(OC2CCCCC2O)c([N+](=O)[O-])c1 (stereo not drawn) | inactive: 6.53% |
| CCN(CC)CCCOC(=O)C(O)(c1ccccc1)C1CCCCC1 (stereo not drawn) | inactive: -3.62% |
| CP(=O)(Nc1ccccc1F)Oc1ccccc1 (stereo not drawn) | inactive: -2.76% |
| CC(C)c1ccc(OP(C)(=O)Nc2ccc(SC(F)(F)F)cc2)cc1 (stereo not drawn) | inactive: -5.62% |
| COc1ccc2c(c1O)-c1c(O)c(OC)cc3c1[C@H](C2)[N+](C)(C)CC3.O=[N+]([O-])c1cc([N+](=O)[O-])c([O-])c([N+](=O)[O-])c1[O-] | inactive: 4.16% |
| O=C(OC1CN2CCC1CC2)c1ccc([N+](=O)[O-])cc1 (stereo not drawn) | inactive: -0.47% |
| O=C(OCCN1CCN(CCOCc2ccccc2)CC1)C(O)(c1ccccc1)c1ccccc1 | inactive: 0.16% |
| CCOP(C)(=S)SCC(=O)NC(C)(CC)C(=O)O (stereo not drawn) | inactive: -3.06% |
| CP(=O)(Nc1ccc(SC(F)(F)F)cc1)Oc1ccc(F)cc1 (stereo not drawn) | inactive: 5.56% |
| Cc1ccccc1NP(C)(=O)Nc1ccccc1C | inactive: 0.16% |
| CP(=O)(Nc1ccc2c(c1)OCCO2)Oc1ccccc1 (stereo not drawn) | inactive: -2.56% |
| CN(C)CCOC(=O)C(O)(c1ccccc1)C1CCCCC1 (stereo not drawn) | inactive: -0.78% |
| COc1ccc(NP(C)(=O)Oc2ccccc2OC)cc1 (stereo not drawn) | inactive: 2.88% |
| COc1ccc(OP(C)(=O)Nc2cccc(Br)c2)cc1 (stereo not drawn) | inactive: -2.09% |
| O=[N+]([O-])c1cc([N+](=O)[O-])c(NCC2CCS(=O)(=O)C2)c([N+](=O)[O-])c1 (stereo not drawn) | inactive: 5.72% |
| CCOC(=O)c1ccc(NP(C)(=O)Oc2ccc(Cl)cc2)cc1 (stereo not drawn) | inactive: -1.61% |
| CP(=O)(OC12CC3CC(CC(C3)C1)C2)OC12CC3CC(CC(C3)C1)C2 | inactive: 5.88% |
| Nc1ccc2c(ccc3cccnc32)n1.O=[N+]([O-])c1cc([N+](=O)[O-])c(O)c([N+](=O)[O-])c1 | inactive: 0.99% |

| SMILES | inhibition |
| --- | --- |
| COc1ccccc1OP(C)(=O)Nc1c(C)n(C)n(-c2ccccc2)c1=O (stereo not drawn) | inactive: -8.55% |
| O=C(OCCCN1CCCC1)C(O)(c1ccccc1)C1CCCCC1 (stereo not drawn) | inactive: 0.15% |
| CP(=O)(Oc1ccccc1)N1CCOC1=O (stereo not drawn) | inactive: -4.09% |
| CCc1ccc(OP(C)(=O)Nc2cccnc2)cc1 (stereo not drawn) | inactive: 0.25% |
| CCN(CC)CC(O)COC(=O)C(O)(c1ccccc1)C1CCCCC1 (stereo not drawn) | inactive: -7.04% |
| COc1ccc(OP(C)(=O)Nc2ccc(Br)cc2)cc1 (stereo not drawn) | inactive: 1.28% |
| CN(C)C(=O)c1c([N+](=O)[O-])cc([N+](=O)[O-])cc1[N+](=O)[O-] | inactive: -2.36% |
| CC(C)(C)c1ccc(OP(C)(=O)O)cc1 | inactive: -5.57% |
| COc1ccccc1OP(C)(=O)Nc1ccccc1Br (stereo not drawn) | inactive: -4.23% |
| CP(=O)(Nc1ccc(Cl)cc1)Oc1ccc(F)cc1 (stereo not drawn) | inactive: -6.14% |
| COc1ccc(OP(C)(=O)Nc2ccccn2)cc1 (stereo not drawn) | inactive: 6.18% |
| CN(C)CCOC(=O)C(O)(c1ccccc1)C1CCCC1 (stereo not drawn) | inactive: -4.12% |
| COc1ccccc1OP(C)(=O)Nc1ccc(Br)cc1 (stereo not drawn) | inactive: -2.33% |
| CP(=O)(Nc1ccccn1)Oc1ccccc1 (stereo not drawn) | inactive: -0.62% |
| COc1ccccc1OP(C)(=O)Nc1ccc(C)cc1C (stereo not drawn) | inactive: -2.1% |
| CCc1ccc(OP(C)(=O)O)cc1 | inactive: -2.2% |
| O=[N+]([O-])c1cc([N+](=O)[O-])c(Nc2ccccn2)c([N+](=O)[O-])c1 | inactive: -0.85% |
| Cc1c(NP(C)(=O)Oc2ccc(C(C)C)cc2)c(=O)n(-c2ccccc2)n1C (stereo not drawn) | inactive: -3.73% |
| COc1ccccc1OP(C)(=O)Nc1ccc(C)c(C)c1 (stereo not drawn) | inactive: -1.46% |
| COc1ccc(OP(C)(=O)Nc2ccccc2Br)cc1 (stereo not drawn) | inactive: 0.51% |
| Cc1cc(C)cc(OP(C)(=O)Nc2cccc(C(F)(F)F)c2)c1 (stereo not drawn) | inactive: -5.1% |
| CP(=O)(OCCOc1ccccc1)OCCOc1ccccc1 | inactive: 2.88% |

| SMILES | inhibition |
| --- | --- |
| CP(=O)(Nc1ccc(Cl)cc1Cl)Oc1ccccc1 (stereo not drawn) | inactive: -2.19% |
| Cc1nc2ccc3ccccc3c2o1.O=[N+]([O-])c1cc([N+](=O)[O-])c(O)c([N+](=O)[O-])c1 | inactive: -6.35% |
| O=[N+]([O-])c1ccc2c(c1)C=Nc1ccccc1O2 | inactive: 7.86% |
| CC(C)(C)c1ccc(OP(C)(=O)Nc2ccc(SC(F)(F)F)cc2)cc1 (stereo not drawn) | inactive: 2.23% |
| Cc1cccc(C)c1OP(C)(N)=O (stereo not drawn) | inactive: -0.27% |
| O=[N+]([O-])c1cc([N+](=O)[O-])c(Nc2cccnc2)c([N+](=O)[O-])c1 | inactive: -3.06% |
| Cc1cc(C)cc(OP(C)(N)=O)c1 (stereo not drawn) | inactive: -1% |
| COc1ccccc1OP(C)(=O)Nc1cc(Cl)ccc1C (stereo not drawn) | inactive: 4.36% |
| COc1ccc(OP(C)(=O)Nc2cccc(F)c2)cc1 (stereo not drawn) | inactive: -2.99% |
| COc1ccccc1OP(C)(=O)Nc1ccc(C)cc1 (stereo not drawn) | inactive: -3.52% |
| Cc1ccc(NP(C)(=O)Oc2ccccc2)c(C)c1 (stereo not drawn) | inactive: -10.8% |
| CCOC(=O)c1ccc(NP(C)(=O)Oc2ccccc2)cc1 (stereo not drawn) | inactive: -0.21% |
| CCN(CC)CCCOC(=O)C(O)(c1ccccc1)c1ccccc1 | inactive: 7.09% |
| CCc1ccc(OP(C)(=O)N2CCN(c3ccc([N+](=O)[O-])cc3)CC2)cc1 (stereo not drawn) | inactive: -1.45% |
| CP(=O)(NC(=O)Nc1ccccc1)Oc1ccccc1 (stereo not drawn) | inactive: 3.95% |
| Cc1cc(C)cc(OP(C)(=O)Nc2ccc(SC(F)(F)F)cc2)c1 (stereo not drawn) | inactive: 1.94% |
| Cc1cccc(C)c1OP(C)(=O)Nc1ccc(SC(F)(F)F)cc1 (stereo not drawn) | inactive: -2.52% |
| CP(=O)(Nc1ccc(SC(F)(F)F)cc1)Oc1ccc(Cl)cc1 (stereo not drawn) | inactive: 0.81% |
| CP(=O)(Oc1ccccc1)OC(c1ccccc1)C(F)(F)F (stereo not drawn) | inactive: -3% |
| CP(=O)(Nc1ccccn1)Oc1ccc(Cl)cc1 (stereo not drawn) | inactive: 4.88% |
| CCOC(=O)c1ccc(NP(C)(=O)Oc2ccc(OC)cc2)cc1 (stereo not drawn) | inactive: 1.21% |
| O=[N+]([O-])c1cc([N+](=O)[O-])c(O)c([N+](=O)[O-])c1.c1ccc(Oc2ccncc2)cc1 | inactive: -6.17% |

| SMILES | inhibition |
| --- | --- |
| CCOP(C)(=S)SCC(=O)NC(C)C(=O)O (stereo not drawn) | inactive: -2.55% |
| CP(=O)(Nc1ccccc1Br)Oc1ccccc1 (stereo not drawn) | inactive: 3% |
| COc1ccccc1OP(C)(=O)Nc1ccccc1 (stereo not drawn) | inactive: -0.81% |
| CP(=S)(Nn1cnnc1)Oc1ccccc1 (stereo not drawn) | inactive: 2.71% |
| O=[N+]([O-])c1cc([N+](=O)[O-])c(Nc2nnnn2CCO)c([N+](=O)[O-])c1 | inactive: -2.2% |
| CC1=C2N=C(C=C3N=C(C(C)=C4[N-][C@@](C)([C@@H]5N=C1[C@](C)(CCC(=O)NC[C@@H](C)OP(=O)([O-])O[C@H]1[C@@H](O)[C@@H](n6cnc7cc(C)c(C)cc76)O[C@@H]1CO)[C@H]5CC(N)=O)[C@@](C)(CC(N)=O)[C@@H]4CCC(N)=O)[C@@](C)(CC(N)=O)[C@@H]3CCC(N)=O)C(C)(C)[C@@H]2CCC(N)=O.[C-]#N.[Co+3] | inactive: -2.41% |
| CCOC(=O)C(CC)C1=NC(C)(C)Cc2ccccc21.O=[N+]([O-])c1cc([N+](=O)[O-])c(O)c([N+](=O)[O-])c1 (stereo not drawn) | inactive: 3.16% |
| CP(=O)(Nc1ccc(SC(F)(F)F)cc1)Oc1ccccc1 (stereo not drawn) | inactive: -4.39% |
| CCCOc1ccc(NP(C)(=O)Oc2ccc(Cl)cc2)cc1 (stereo not drawn) | inactive: 4.74% |
| COc1ccccc1OP(C)(=O)Nc1c(C)cccc1C (stereo not drawn) | inactive: 9.14% |
| CN1CCCCC1COC(=O)C1(O)c2ccccc2CCc2ccccc21 (stereo not drawn) | inactive: -2.32% |
| O=[N+]([O-])c1cc([N+](=O)[O-])c(-n2nnc3ccccc32)c([N+](=O)[O-])c1 | inactive: -1.73% |
| Cc1nc2ccc3ccccc3c2s1.O=[N+]([O-])c1cc([N+](=O)[O-])c(O)c([N+](=O)[O-])c1 | inactive: 4.42% |
| O=[N+]([O-])c1cc([N+](=O)[O-])c(-c2cnn(-c3ccccc3)c2)c([N+](=O)[O-])c1 | inactive: 7.63% |
| CCOC(=O)c1ccc(NP(C)(=O)Oc2cc(C)cc(C)c2)cc1 (stereo not drawn) | inactive: -6.84% |
| Cc1cc(C)cc(OP(C)(=O)Nc2ccc(C)cc2C)c1 (stereo not drawn) | inactive: 2.44% |
| COc1ccccc1OP(C)(=O)Nc1cccc(Br)c1 (stereo not drawn) | inactive: -3.71% |
| Cc1ccc(C)c(NP(C)(=O)Oc2ccccc2)c1 (stereo not drawn) | inactive: 1.5% |
| CP(=O)(Nc1cccc(Br)c1)Oc1ccccc1 (stereo not drawn) | inactive: -1% |
| Cc1cc(C)cc(OP(C)(=O)Nc2ccccn2)c1 (stereo not drawn) | inactive: -3.39% |
| O=C(O)c1cccc(Nc2c([N+](=O)[O-])cc([N+](=O)[O-])cc2[N+](=O)[O-])c1 | inactive: 1.74% |
| CC1=NCCc2c1[nH]c1ccccc21.O=[N+]([O-])c1cc([N+](=O)[O-])c(O)c([N+](=O)[O-])c1 | inactive: -1.09% |

Source: PubChem BioAssay AID1899 (The Scripps Research Institute Molecular Screening Center, 2009)
